Literature values in patent US6121315A, “Oral compositions containing a zinc compound” (priority 1999, dated 2000).

Settings: 5% by weight in mineral oil, nine-person taste panel; cited from earlier work

SMILES: CC1CCC(C(C)C)C(OC(=O)CCC(=O)OC2CC(C)CCC2C(C)C)C1 (stereo not shown) [dimenthyl succinate]
- taste and odor: odorless and tasteless
